Series [1] relates to A. baumannii YQ4 transcriptome. Description: RNA-seq analysis, differentially expressed genes. The class given is cell-based, Acinetobacter baumannii. The note with it: 1/4 MIC (4 μg/ml), M9 minimal medium.
The nature of the next series: peptide made by a vendor. The note with it: whole synthesis, HPLC and mass spectrometry.

For part of these data: HELM strings list residues between dots; [ac] is acetyl, [am] amide, other brackets name non-standard units. Non-standard residues stand in square brackets, D forms with d. Residues, ends and D or L forms follow the SMILES beside them. Aib = CC(C)(N)C(=O)O

As for `CC(=O)N[C@@H](C)C(=O)N[C@@H](CO)C(=O)NC(C)(C)C(=O)N[C@@H](CC(C)C)C(=O)N[C@@H](CCCNC(=N)N)C(=O)N[C@@H](CCCCN)C(=O)N[C@@H](CC(C)C)C(=O)NC(C)(C)C(=O)N[C@@H](CCCCN)C(=O)N[C@@H](CCCNC(=N)N)C(=O)N[C@@H](CC(C)C)C(=O)N[C@@H](CC(C)C)C(N)=O` [COG1410, acetyl-AS-Aib-LRKL-Aib-KRLL-amide] (Ac-AS[Aib]LRKL[Aib]KRLL-NH2), in series [1], the “genes with decreased transcription level” value turned out to be 37 and the “genes with increased transcription level” value stood at 55.

Turning to “PEPTIDE1{[ac].A.S.[Aib].L.R.K.L.[Aib].K.R.L.L.[am]}$$$$V2.0”, the “purity (crude or final not stated)” value in the series “peptide made by a vendor” is recorded as 95%.

For the origin of these results see PMC9445589 (Frontiers in Microbiology, 2022).
